# What was measured:
# [1] = tested on: SKOV-3 human ovarian adenocarcinoma xenograft; assay: SK-OV-3 human ovarian xenograft antitumor efficacy; type: in vivo, CB17 SCID mice
# [2] = tested on: OVCAR-5 human ovarian adenocarcinoma xenograft; assay: OVCAR-5 human ovarian xenograft antitumor efficacy; type: in vivo, CB17 SCID mice
# [3] = OVCAR-5 xenograft, single i.p. dose on d-1
structure (smiles),measurement,setting,value
O=C(O)CCOc1ccc(N(CCCl)CCCl)cc1,antitumor activity (in words),[1]; SK-OV-3-bearing mice,no significant antitumor activity
same,Response Rate (RR),"[1]; SK-OV-3 xenograft, tumor volume regression >50%",0%
same,antitumor activity (in words),[2]; OVCAR-5-bearing mice,no significant antitumor activity
same,Cures (mice alive for 120 days after tumor inoculation),[2]; [3],0/5
same,TI% (Tumor Inhibition),[2]; [3],6.22%
same,Response Rate (RR),"[2]; OVCAR-5 xenograft, tumor volume regression >50%",0%
